Pooled drug test results. Numbers come from NIAID ChemDB, via PubChem.

Common to all: tests on isolated targets; target: CCR5; endpoint: IC50

Conditions beyond the fields shown may differ between rows.

| SMILES | read by | result |
|---|---|---|
| CC(=O)N1CCC(C(=O)N(CCCN2CCC(Cc3ccccc3)CC2)c2ccc(C)c(Cl)c2)CC1 | radiometric | 0.00062 µM |
| O=C(NCc1ccccc1)N(CCCN1CCC(Cc2ccccc2)CC1)c1ccccc1 | radiometric | 0.15 µM |
| CCCCOCCOc1ccc(-c2ccc3c(c2)C=C(C(=O)Nc2ccc(S(=O)Cc4ccnn4C)cc2)CCN3CC(C)C)cc1 | radiometric | 0.035 µM |
| CCCCOCCOc1ccc(-c2ccc3c(c2)C=C(C(=O)Nc2ccc(C(O)c4ccc(C)c[n+]4[O-])cc2)CCN3CC(C)C)cc1 | radiometric | 0.21 µM |
| CCCCOCCOc1ccc(-c2ccc3c(c2)C=C(C(=O)Nc2ccc(S(=O)Cc4nncn4CCC)cc2)CCN3CCC)cc1 | radiometric | 0.0043 µM |
| CN1CC(C(=O)N(CCCN2CCCCC2)c2ccccc2)CC1=O | radiometric | >10 µM |
| Cc1ccc(-c2ccc3c(c2)C=C(C(=O)Nc2ccc(CN(C)C4CCC(=O)CC4)cc2)CCO3)cc1 | radiometric | 0.63 µM |
| CCCCOCCOc1ccc(-c2ccc3c(c2)C=C(C(=O)Nc2ccc(S(=O)Cc4nccn4C(C)C)cc2)CCN3CC(C)C)cc1 | radiometric | 0.0084 µM |
| C=CCOC(=O)N[C@@H](CCN1CCC(N(CC)C(=O)Cc2ccc(S(C)(=O)=O)cc2)CC1)c1ccccc1 | fluorescence | <50 µM |
| COc1ccc(CC2CCN(CCCN(C(=O)C3CCN(S(C)(=O)=O)CC3)c3ccc(Cl)c(Cl)c3)CC2)cc1 | radiometric | 0.0079 µM |
| CCN(C(=O)Cc1ccc(S(C)(=O)=O)cc1)C1CCN(CC[C@H](NC(=O)C2CCN(S(=O)(=O)c3ccc(F)cc3)CC2)c2ccccc2)CC1 | fluorescence | <50 µM |
| O=C(Nc1ccc(Cl)cc1)N(CCCN1CCC(Cc2ccccc2)CC1)c1ccc(Cl)c(Cl)c1 | radiometric | 0.062 µM |
| CC(=O)N1CCC(C(=O)N(CCCN2CCC(Cc3ccc(F)cc3)CC2)c2cccc(Cl)c2)CC1 | radiometric | 0.003 µM |
| CCCCOCCOc1ccc(-c2ccc3c(c2)C=C(C(=O)Nc2ccc(C(O)c4cc(C)cc[n+]4[O-])cc2)CCN3CC(C)C)cc1 | radiometric | 0.032 µM |
| O=C(NC1CCCCC1)N(CCCN1CCC(Cc2ccccc2)CC1)c1ccccc1 | radiometric | 0.024 µM |
| CCCCOCCOc1ccc(-c2ccc3c(c2)C=C(C(=O)Nc2ccc(S(=O)Cc4cncn4CCC)cc2)CCN3CC(C)C)cc1 | radiometric | 0.0036 µM |
| CSc1ccc(CC2CCN(CCCN(C(=O)C3CCN(S(C)(=O)=O)CC3)c3ccc(Cl)c(Cl)c3)CC2)cc1 | radiometric | 0.0031 µM |
| Cc1ccc(-c2ccc3c(c2)C=C(C(=O)Nc2ccc(Cc4cccc[n+]4[O-])cc2)CCO3)cc1 | radiometric | 1.1 µM |
| CCN(C(=O)Cc1ccc(S(C)(=O)=O)cc1)C1CCN(CC[C@H](NC(=O)C2CCN(S(=O)(=O)c3ccc(NC(C)=O)cc3)CC2)c2ccccc2)CC1 | fluorescence | <50 µM |
| Cc1ccc(N(CCCN2CCC(Cc3ccc(F)cc3)CC2)C(=O)C2CCN(S(C)(=O)=O)CC2)cc1Cl | radiometric | 0.0005 µM |
| Cc1ccc(-c2ccc3c(c2)C=C(C(=O)Nc2ccc(CN(C)C4CCOCC4)cc2)CCS3)cc1 | radiometric | 0.8 µM |
| CCS(=O)(=O)c1ccc(CC2CCN(CCCN(C(=O)C3CCN(S(C)(=O)=O)CC3)c3ccc(Cl)c(Cl)c3)CC2)cc1 | radiometric | 0.0019 µM |
| O=C(Nc1ccc(Cl)cc1)N(CCCN1CCC(Cc2ccc(S(=O)(=O)N3CCOCC3)cc2)CC1)c1ccccc1 | radiometric | 0.001 µM |
| CC(=O)N1CCCC(C(=O)N(CCCN2CCC(Cc3ccccc3)CC2)c2ccccc2)C1 | radiometric | 0.68 µM |
| Cc1ccc(-c2ccc3c(c2)C=C(C(=O)N=C2C=CC(=C4C=CC=CN4O)C=C2)CCO3)cc1 | radiometric | >10 µM |
| CCN(C(=O)Cc1ccc(S(C)(=O)=O)cc1)C1CCN(CC[C@H](NC(=O)C2CCN(S(=O)(=O)c3ccc(S(C)(=O)=O)cc3)CC2)c2ccccc2)CC1 | fluorescence | <50 µM |
| CCCCOCCOc1ccc(-c2ccc3c(c2)C=C(C(=O)Nc2ccc(S(=O)Cc4ncccn4)cc2)CCN3CC(C)C)cc1 | radiometric | 0.1 µM |
| CN1CC(C(=O)N(CCCCN2CCC(C(=O)c3ccc(F)cc3)CC2)c2ccccc2)CC1=O | radiometric | 3.2 µM |
| CCCCOCCOc1ccc(-c2ccc3c(c2)C=C(C(=O)Nc2ccc([C@H](O)c4cccc[n+]4[O-])cc2)CCN3Cc2ccccc2)cc1 | radiometric | 0.02 µM |
| Cc1ccc(-c2ccc3c(c2)C=C(C(=O)Nc2ccc(CN(C)C4CCOCC4)cc2)CCC3)cc1 | radiometric | 0.95 µM |
| CN1CC(C(=O)N(CCCN2CCC(c3ccccc3)CC2)c2ccccc2)CC1=O | radiometric | 3.6 µM |
| Cc1ccc(-c2ccc3c(c2)C=C(C(=O)Nc2ccc(C[N+](C)(C)C4CCOCC4)cc2)CCO3)cc1 | radiometric | 0.0014 µM |
| Cc1ccc(-c2ccc3c(c2)C=C(C(=O)Nc2ccc(CP4(=O)CCCCC4)cc2)CCO3)cc1 | radiometric | 0.41 µM |
| CCCCOCCOc1ccc(-c2ccc3c(c2)C=C(C(=O)Nc2ccc(S(=O)c4ccccn4)cc2)CCN3CCC)cc1 | radiometric | 0.45 µM |

For reference, 5 entries again:

SMILES	read by	result
CCN(C(=O)Cc1ccc(S(C)(=O)=O)cc1)C1CCN(CC[C@H](NC(=O)C2CCN(S(=O)(=O)c3ccc(F)cc3)CC2)c2ccccc2)CC1	fluorescence	<50 µM
CCCCOCCOc1ccc(-c2ccc3c(c2)C=C(C(=O)Nc2ccc(S(=O)Cc4ccnn4C)cc2)CCN3CC(C)C)cc1	radiometric	0.035 µM
CN1CC(C(=O)N(CCCN2CCCCC2)c2ccccc2)CC1=O	radiometric	>10 µM
CN1CC(C(=O)N(CCCCN2CCC(C(=O)c3ccc(F)cc3)CC2)c2ccccc2)CC1=O	radiometric	3.2 µM
CC(=O)N1CCCC(C(=O)N(CCCN2CCC(Cc3ccccc3)CC2)c2ccccc2)C1	radiometric	0.68 µM

ICn is the concentration giving n% inhibition.